Compound potency records, mixed from different reports. Data source: NIAID ChemDB in PubChem.

Common to all: host cell toxicity; endpoint: CC50

Blank or dashed fields: not listed here. Conditions beyond the fields shown may differ between rows. CCn: concentration that lowers growth or viability of the cells by n%.

compound	cells	read by	result
CCOc1nc(N)nc2ccc(-c3ccc(NC(=O)C4(N)CC4)c(F)c3)nc12	Huh7	-	>20 µM
CCC1(Cc2ccccc2)OS(=O)(=O)C=C1OC	HEL fibroblasts	-	>200 µM
Nc1cc2c(=O)c(C(=O)O)cn(C3CC3)c2cc1N1CCN(c2ccc3ccccc3n2)CC1	HFF	MTT	<4 µM
CCCC(CCOc1ccc(-c2ccc(Cl)cc2)cc1)CCN1CCN(c2ccncc2)C1=O	RD	-	>25 µM
CCOc1ccc(-c2cc(=O)c3cc(C(C)C)ccc3n2C)cc1C	HeLa S3	MTT	>5.8 µg/mL
CCOC(=O)[C@@]1(C)CC[C@]2(C)CC[C@]3(C)C(=CC(=O)[C@@H]4[C@@]5(C)CC/C(=N\OCc6ccc(Cl)cc6)C(C)(C)[C@@H]5CC[C@]43C)[C@@H]2C1	CT26	MTT	14.33 µM
CCCCCCCCCCCCCCOC(=O)NC(CCC(=O)O)(CCC(=O)O)CCC(=O)O	Huh7-Luc	-	>42 µM
CCOC(=O)[C@@]1(C)CC[C@]2(C)CC[C@]3(C)C(=CC(=O)[C@@H]4[C@@]5(C)CC/C(=N\OCc6ccc(F)cc6)C(C)(C)[C@@H]5CC[C@]43C)[C@@H]2C1	CT26	MTT	4.54 µM
CC(C)C[C@@H]1NC(=O)[C@H](Cc2c[nH]c3ccccc23)NC(=O)[C@@H](CCCN=C(N)N)NC(=O)[C@H](CC(N)=O)NC(=O)[C@H](C(C)C)NC(=O)[C@@H](CC(C)C)NC1=O	Colorectal carcinoma	MTT	>30 µM
CCCCCCCCCCCCCCCCOP(=O)(O)CO[C@H](CO)Cn1ccc(N)nc1=O	DAUDI	-	>1 µM
Nc1cc2c(=O)c(C(=O)O)cn(C3CC3)c2nc1N1CCN(c2ccccn2)CC1	HFF	MTT	126.5 µM
CCOc1nc(N)nc2ccc(-c3ccc(NC(=O)CC)cc3)nc12	Huh7	-	>20 µM
CC(C)C[C@@H]1NC(=O)[C@H](Cc2c[nH]c3ccccc23)NC(=O)[C@@H](CCCCN)NC(=O)[C@H](CC(=O)O)NC(=O)[C@H](C(C)C)NC(=O)[C@@H](CC(C)C)NC1=O	Colorectal carcinoma	MTT	>30 µM
CCCCCCCCCCCCCCCCCCOCCCOP1(=O)CO[C@@H](Cn2ccc(N)nc2=O)CO1	DAUDI	-	>1 µM
CCOC(=O)[C@@]1(C)CC[C@]2(C)CC[C@]3(C)C(=CC(=O)[C@@H]4[C@@]5(C)CC/C(=N\OCc6cccc(Cl)c6)C(C)(C)[C@@H]5CC[C@]43C)[C@@H]2C1	K562	MTT	66.5 µM
Nc1cc2c(=O)c(C(=O)O)cn(N)c2cc1N1CCN(c2ccccn2)CC1	HFF	MTT	127.5 µM
CCC1(Cc2ccccc2)OS(=O)(=O)C=C1OCc1ccc(Cl)c(Cl)c1	HEL fibroblasts	-	36.7 µM
Cc1cc(COc2ccc(-c3ccc(Cl)cc3)cc2)cc(CN2CCN(c3ccncc3)C2=O)c1	RD	-	>25 µM
COc1ccc(-n2c(-c3ccccc3)c(C)c(=O)c3cc(C(C)C)ccc32)cc1	HeLa S3	MTT	>2.5 µg/mL
CCOc1nc(N)nc2ccc(-c3ccc(-c4nnc(C)o4)cc3)nc12	Huh7	-	>20 µM
O=C(OCc1ccccc1)N1OCCC1n1cc(COCc2cn(CCO)nn2)c(=O)[nH]c1=O	CEM-GFP	MTS	427 µM
CCC1(Cc2ccccc2)OS(=O)(=O)C=C1OCC(=O)OC	HEL fibroblasts	-	>200 µM
N#Cc1cccc(-c2cc3c(-c4ccnc(NC5CCCC5)n4)ccc(NC4CCCC4)n3n2)c1	VERO 76	-	>20 µM
Nc1nc2c(ncn2COC(CO)CO)c(=O)[nH]1	HEL fibroblasts	-	134 µM
CCO[P+](O)(OCC)[C@@H]1C[C@H](C[N+]2=CC(F)C(=O)NC2=O)N(C)O1	MOLT-3	MTS	>1000 µM
CCC1(Cc2ccccc2)OS(=O)(=O)C=C1OCc1ccccc1	HEL fibroblasts	-	>200 µM
Nc1nc2c(ncn2/C=C2/CC2(CO)CF)c(=O)[nH]1	Akata	-	55.7 µM
CCCN(Cc1ccc(OCC(=O)O)cc1)C(=O)c1ccc(-c2ccc3c(c2)OCO3)cc1	BJ	-	>20 µM
CCn1c(-c2cccs2)c(C)c(=O)c2cc(C(C)C)ccc21	HELA-OHIO	MTT	>10 µg/mL
CCCCCCCC/C=C\CCCCCCCOCCCOP1(=O)CO[C@@H](Cn2ccc(N)nc2=O)CO1	DAUDI	-	>1 µM
CCn1c2c(c(=O)c3cc(C(C)C)ccc31)Cc1ccsc1-2	HELA-OHIO	MTT	>10 µg/mL
Nc1nc(O[C@H]2CCOC2)c2nc(-c3ccc(C(=O)NCCN4CCOCC4)cc3)ccc2n1	Huh7	-	>20 µM
CC(C)C[C@@H]1NC(=O)[C@H](Cc2c[nH]c3ccccc23)NC(=O)[C@@H](CCCCN)NC(=O)[C@H](C)NC(=O)[C@H](C(C)C)NC(=O)[C@@H](CC(C)C)NC1=O	Lung carcinoma cells	MTT	>30 µM
Brc1ccc(Cn2ccc3nc(/C=C/c4ccccc4)nc-3c2)cc1	MDBK	-	>100 µg/mL
COc1ccc(-c2c(C)c(=O)c3cc(OCC(C)C)c(C)cc3n2C)cc1C	HeLa S3	MTT	>4 µg/mL
COc1cccc(N2CCN(c3cc4c(cc3N)c(=O)c(C(=O)O)cn4C3CC3)CC2)c1	HFF	MTT	15.5 µM
Nc1nc(O[C@@H]2CCOC2)c2nc(-c3ccc(NC(=O)[C@H]4CCNC4)c(F)c3)ccc2n1	Huh7	-	>20 µM
CCn1c(-c2ccccc2)c(C)c(=O)c2cc(N3CCOCC3)ccc21	HELA-OHIO	MTT	>50 µg/mL
Fc1ccc(-c2cc3c(-c4ccnc(NC5CCC5)n4)ccc(NC4CCC4)n3n2)cc1	VERO 76	-	>250 µM
O=C(OCc1ccccc1)N1OCCC1n1cc(COCc2ccccc2)c(=O)[nH]c1=O	CEM-GFP	MTS	1127 µM
Nc1ccc(-c2cc3c(-c4ccnc(NC5CCC5)n4)ccc(NC4CCC4)n3n2)cc1	VERO 76	-	19 µM
CC(CCOc1ccc(-c2ccc(Cl)cc2)cc1)CCN1CCN(c2ccncc2)C1=O	RD	-	>25 µM
Clc1ccc(Cn2ccc3nc(-c4ccccc4)nc-3c2)cc1	MDBK	-	51 µg/mL
CCOC(=O)CCCCCOc1cccc(CN(C(=O)c2ccc(-c3cccc(-c4nnc(C)o4)c3)cc2)C(C)C)c1	BJ	-	>20 µM
Clc1cccc(-c2cc3c(-c4ccnc(NC5CCCC5)n4)ccc(NC4CCCC4)n3n2)c1	VERO 76	-	>40 µM
Cc1ccnc2c1NC(=O)c1cccnc1N2C1CC1	CEM-GFP	MTS	980 µM
CC(C)N1CCC(NC(=O)c2ccc(-c3ccc4nc(N)nc(O[C@H]5CCOC5)c4n3)cc2)CC1	Huh7	-	>20 µM
Brc1ccc(Cn2ccc3nc(CSc4ccccc4)nc-3c2)cc1	MDBK	-	31.7 µg/mL
C[C@H]1[C@H](O)[C@@H](C)/C=C/C=C/C=C/C=C/C=C/C=C/C=C/[C@H](O[C@@H]2O[C@H](C)[C@@H](O)[C@H](N)[C@@H]2O)C[C@@H]2O[C@](O)(C[C@@H](O)C[C@@H](O)CC[C@H](O)[C@@H](O)C[C@@H](O)CC(=O)O[C@H]1C)C[C@H](O)[C@H]2C(=O)O	CEMx174	MTT	>10 µM
CC(C)C(=O)Nc1ccc(-c2ccc3nc(N)nc(N4CCS(=O)(=O)CC4)c3n2)cc1	Huh7	-	>20 µM
Nc1ncnc2c1ncn2/C=C1/CC1(CO)CF	Akata	-	64.1 µM
Cc1c(-c2ccccc2)n(C)c2cc(C(C)C)c(OC(C)C)cc2c1=O	HELA-OHIO	MTT	4.9 µg/mL
c1cc(NC2CCCCC2)cc(-c2cc3c(-c4ccnc(NC5CCC5)n4)ccc(NC4CCC4)n3n2)c1	VERO 76	-	>40 µM
CCOC(=O)CCCCCOc1cccc(CN(C(=O)c2ccc(Br)cc2)C(C)C)c1	HEK 293	-	>20 µM
COc1ccnc2[nH]cc(C(=O)C(=O)N3CCN(C(=O)c4ccccc4)C[C@H]3C)c12	PM1	-	>225 µM
CCC1(Cc2ccccc2)OS(=O)(=O)C=C1OCCCc1ccccc1	HEL fibroblasts	-	133 µM
CCCCCCCCCCCCCCCCCCOC[C@H](COP(=O)(O)CO[C@H](CO)Cn1ccc(N)nc1=O)OCc1ccccc1	DAUDI	-	>1 µM
CCC1(Cc2ccccc2)OS(=O)(=O)C=C1OCc1ccc(C(F)(F)F)cc1	HEL fibroblasts	-	99 µM
c1ccc(-c2nc3ccn(Cc4cccc5ccccc45)cc-3n2)cc1	MDBK	-	>100 µg/mL
CCOC(=O)COc1ccc(CNC(C)C)cc1	HEK 293	-	>20 µM
CCC(=O)Nc1ccc(-c2ccc3nc(N)nc(N4CCS(=O)(=O)CC4)c3n2)cc1	Huh7	-	<10 µM
O=C1N(Cc2ccc(COc3ccc(-c4ccc(Cl)cc4)cc3)cc2)CCN1c1ccncc1	RD	-	>1.25 µM
CCOC(=O)[C@@]1(C)CC[C@]2(C)CC[C@]3(C)C(=CC(=O)[C@@H]4[C@@]5(C)CC/C(=N\OCc6cccc(F)c6)C(C)(C)[C@@H]5CC[C@]43C)[C@@H]2C1	K562	MTT	15.32 µM
CC(C)C[C@@H]1NC(=O)[C@H](Cc2c[nH]c3ccccc23)NC(=O)[C@@H](CCCCN)NC(=O)[C@H](CC(C)C)NC(=O)[C@H](C(C)C)NC(=O)[C@@H](CC(C)C)NC1=O	Colorectal carcinoma	MTT	>30 µM